From PubChem BioAssay (NCI)
Only a part is listed here, and it is no random draw.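 Assay: single dose, 48 h. Readout: percent growth (0 = no net growth; negative = cell death). Active: <10.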 Active and inactive are the calls of the source.

Experiments:
Assay in all cases: NCI-60 one-dose screen, 48 h (100 = growth as untreated, 0 = no growth, -100 = all killed)
Settings in all cases: 10 µM
NCI-H23 lung = tested on: NCI-H23 lung
NCI-H226 lung = tested on: NCI-H226 lung
NCI-H322M lung = tested on: NCI-H322M lung
HOP-62 NSCLC = tested on: HOP-62 NSCLC
NCI-H460 lung = tested on: NCI-H460 lung
HOP-92 NSCLC = tested on: HOP-92 NSCLC
NCI-H522 lung = tested on: NCI-H522 lung
A549/ATCC NSCLC = tested on: A549/ATCC NSCLC
COLO 205 colon = tested on: COLO 205 colon
SF-295 CNS = tested on: SF-295 CNS
SF-539 CNS = tested on: SF-539 CNS
UACC-257 melanoma = tested on: UACC-257 melanoma
M14 melanoma = tested on: M14 melanoma
HCT-15 colon = tested on: HCT-15 colon
HT29 colon = tested on: HT29 colon
SNB-75 CNS = tested on: SNB-75 CNS
SNB-19 CNS = tested on: SNB-19 CNS
U251 CNS = tested on: U251 CNS
PC-3 prostate = tested on: PC-3 prostate
SK-MEL-5 melanoma = tested on: SK-MEL-5 melanoma
UACC-62 melanoma = tested on: UACC-62 melanoma
LOX IMVI melanoma = tested on: LOX IMVI melanoma
SK-MEL-28 melanoma = tested on: SK-MEL-28 melanoma
SK-MEL-2 melanoma = tested on: SK-MEL-2 melanoma
EKVX NSCLC = tested on: EKVX NSCLC

Measured: growth

O=C(O)Cc1ccc(N(CCCl)CCCl)cc1
inactive: NCI-H23 lung 102% | NCI-H226 lung 108% | NCI-H322M lung 98.7% | HOP-62 NSCLC 103% | NCI-H460 lung 96.3% | HOP-92 NSCLC 105% | NCI-H522 lung 85.6% | A549/ATCC NSCLC 96.6% | COLO 205 colon 109% | SF-295 CNS 98.9% | SF-539 CNS 97.3% | UACC-257 melanoma 103% | M14 melanoma 104% | HCT-15 colon 104% | HT29 colon 105% | SNB-75 CNS 96.5% | SNB-19 CNS 111% | U251 CNS 98.5% | PC-3 prostate 94% | SK-MEL-5 melanoma 111% | UACC-62 melanoma 98.7% | LOX IMVI melanoma 89.2% | SK-MEL-28 melanoma 106% | SK-MEL-2 melanoma 105% | EKVX NSCLC 98.2%
